# Tests used:
# [1] = tested on: Vero E6/TMPRSS2; test: Vero E6/TMPRSS2 cytotoxicity with P-gp inhibitor; assay type: cell-based
# [2] = tested on: MERS-CoV; test: Vero E6/TMPRSS2 MERS-CoV antiviral effect with P-gp inhibitor; assay type: cell-based
structure (smiles),measurement,setting,value
CC(C)[C@H](Nc1ncnc2[nH]ccc12)c1ccc2c(c1)S(=O)(=O)CCC2 [ASAP-0008674],cc10,[1],> 20.0 µM
same,EC90,[2],> 20 µM

# From paper doi:10.1101/2024.08.19.608619, “Discovery of potent SARS-CoV-2 nsp3 macrodomain inhibitors uncovers lack of translation to cellular antiviral response” (bioRxiv, 2024)
